Data: PMC7300195 (Frontiers in Immunology, 2020)

Key:
Experiment in all cases: BLI
Conditions in all cases: both partners purified
[1] = target: HeV G hexameric design (NiV hex G design transferred to HeV G) (Hendra virus, strain unnamed (entry: …, UniProt O89343))
[2] = target: HeV G monomeric design (Hendra virus, strain unnamed (entry: …, UniProt O89343))
[3] = target: HeV G native tetrameric stalk design (Hendra virus, strain unnamed (entry: …, UniProt O89343))

Measured: binding result

B1: m102.4 monoclonal antibody (HeV G-specific antibody), human IgG1/kappa (antibody, V domains shown)
VH: EVQVIQSGADVKKPGSSVKVSCKSSGGTFSKYAINWVRQAPGQGLEWMGGIIPILGIANYAQKFQGRVTITTDESTSTAYMELSSLRSEDTAVYYCARGWGREQLAPHPSQYYYYYYGMDVWGQGTTVTVSS
VL: EIVMTQSPGTLSLAPGERATLSCWASQSVRNNYLAWYQQKPGQAPRLVIYNGSTRATGIPDRFSGSGSGTDFTLTISRLDPEDFAVYYCQQYGNSRRVTFGGGTKVEIK
binds: all assays above
